Pooled drug test results. Numbers come from NIAID ChemDB, via PubChem.

Common to all: growth or infection tests; species: Mycobacterium tuberculosis

ECn is the concentration giving n% inhibition of infection, replication or growth. A number after MIC or MFC names an inhibition level or a share of isolates. MIC bound: limit read from a one-dose screen. Percent inhibition refers to the dose given; in toxicity tests it is the harm to the cells. Blank or dashed fields: not listed here. "inactive" is the filed call at that dose; no cut-off is given. Neighbouring rows are from separate reports. Two numbers with a dash give a range or band.

compound | setting | measure | strain | dose | read by | value
CC(=O)/C(N=Nc1ccc(C(=O)N/N=C/c2ccc([N+](=O)[O-])cc2)cc1)=C(\C)O | - | EC50 | H37Rv | - | - | >12.5 µg/mL
Fc1cc(Br)ccc1Nc1nnc(-c2ccncc2)o1 | 21 d | MIC100 | My 331/88 | - | broth dilution | >125 µM
Cc1ccc2oc3ccccc3c(=O)c2c1[N+](=O)[O-] | - | inhibition | H37Rv | 16 µg/mL | - | inactive
FC(F)(F)c1ccccc1Nc1nc(C23CC4CC(CC(C4)C2)C3)cs1 | - | MIC | H37Rv | - | visual reading | >20 µM
Clc1ccc(Nc2nnc(-c3ccncc3)o2)cc1Cl | 14 d | MIC100 | My 331/88 | - | broth dilution | >125 µM
Cc1ccc2oc(=O)n(-c3ccc(Cl)c(Cl)c3)c(=O)c2c1 | - | MIC | CNCTC MY331/88 | - | - | 8 µM
COc1cccc2c1C(=O)c1c(O)c3c(c(O)c1C2=O)C[C@@](O)(/C(C)=N/NC(=O)c1ccc(Cl)cc1)C[C@H]3O[C@H]1C[C@H](N)[C@H](O)[C@H](C)O1 | - | MIC | TAC-R | - | - | 6.3 µg/mL
Fc1cc(Nc2nnc(-c3ccncc3)o2)ccc1Br | 21 d | MIC100 | My 331/88 | - | broth dilution | >125 µM
CN(CC1CCCCC1)C1CCN(c2nc(=O)c3cc(C(F)(F)F)cc([N+](=O)[O-])c3s2)CC1 | - | MIC90 | 16892 clinical isolate | - | resazurin | 0.016 µg/mL
Cc1nccc2c(C)c3c(cc12)c1ccccc1n3CCC1CO1 | - | MIC bound | H37Rv | - | resazurin | <6.25 µg/mL
CON=C1CN(c2nc(=O)c3cc(C(F)(F)F)cc([N+](=O)[O-])c3s2)C1 | - | MIC90 | H37Rv | - | resazurin | 0.03 µg/mL
CC(=O)/C(N=Nc1ccc(C(=O)N/N=C/c2ccccc2)cc1)=C(\C)O | - | MIC | H37Rv | - | - | >12.5 µg/mL
Cc1cccc(C)c1Nc1nc(-c2ccccn2)cs1 | - | MIC | H37Rv | - | visual reading | 4.5 µM
CCN(CC)CCOc1ccc(NC(=S)Nc2ccc(OCC(C)C)cc2)cc1 | - | MIC | H37RV #225 | - | - | 62.5 µg/mL
Cc1cc(N)cc2c(=O)c3ccccc3oc12 | - | inhibition | H37Rv | 8 µg/mL | - | inactive
CC(C)C[C@H](NC(=O)CNC(=O)C=Cc1ccco1)C(N)=O | - | inhibition | H37Rv | 12.5 µg/mL | BACTEC | 3%
Cc1nc2ccc(C(F)(F)F)cn2c1C(=O)NCc1ccc2c(c1)CCO2 | - | MIC90 | H37Rv | - | resazurin | 2–10 µM
N[C@H](Cc1ccc2oc3cc(=O)c4ccccc4c-3nc2c1)C(=O)O | - | inhibition | H37Rv | 12.5 µg/mL | BACTEC | 24%
CO/C(=N\N=C\c1cccc(F)c1)c1ccncc1 | - | MIC | 16PI | - | - | >20 µg/mL
O=c1nc(N2CCC(=NOCc3ccccc3)CC2)sc2c([N+](=O)[O-])cc(C(F)(F)F)cc12 | - | MIC90 | 16892 clinical isolate | - | resazurin | 0.016 µg/mL
C/C(=N\NC(=O)c1ccncc1)c1ccc(F)cc1 | - | MIC | 16PI | - | - | >20 µg/mL
O=C(Nc1nc(-c2ccccn2)cs1)NC1CCCCC1 | - | MIC | H37Rv | - | visual reading | 1.2 µM
NNC(=O)c1ccncc1 | - | MIC | H37RV #225 | - | - | <0.5 µg/mL
Cc1[nH]nc(C(F)(F)F)c1N=NN1CCC(C(N)=O)CC1 | - | MIC bound | H37Rv | - | resazurin | >6.25 µg/mL
CCOC(=O)c1ccc(-n2c(=O)oc3ccc(Br)cc3c2=O)cc1 | - | MIC | CNCTC MY331/88 | - | - | 4 µM
O=C(Nc1cccc(NC(=O)c2nn[nH]n2)n1)c1nn[nH]n1 | - | MIC | H37Rv | - | BACTEC | ≥12.5 µg/mL
C/C(=N\NC(=O)c1ccncc1)c1ccc(Cl)c(Cl)c1 | - | MIC | 6 PI | - | - | >20 µg/mL
C=C(C)C(=O)OC1CCC2(C)C(CCC3C2CCC2(C)C(c4ccc(=O)oc4)CC4OC432)C1 | - | MIC bound | H37Rv | - | BACTEC | >12.5 µg/mL
O=C(O)c1cc([N+](=O)[O-])c2oc3ccc([N+](=O)[O-])cc3c(=O)c2c1 | - | inhibition | H37Rv | 32 µg/mL | - | inactive
CCCCc1ccc(NC(=O)NNC(=O)c2ccncc2)cc1 | 14 d | MIC100 | My 331/88 | - | broth dilution | 4 µM
COc1ccc(C=C2C=C(C(C)(C)C)C(=O)C(C(C)(C)C)=C2)cc1 | - | inhibition | H37Rv | 12.5 µg/mL | BACTEC | 99%
CON=C1CCN(c2nc(=O)c3cc(C(F)(F)F)cc([N+](=O)[O-])c3s2)CC1 | - | MIC90 | 16892 clinical isolate | - | resazurin | 0.016 µg/mL
Cc1cc(NC(=O)c2ccc(NC(=O)c3ccccc3)cc2)ccc1N=Nc1ccc(N=Nc2ccc3c(O)cc(S(=O)(=O)O)cc3c2)c2cc(S(=O)(=O)O)ccc12 | - | MIC | H37Rv | - | BACTEC | ≥128 µg/mL
Cc1ccn2c(C(=O)NCc3ccc(N4CCC(NC(=O)OC(C)(C)C)CC4)c(F)c3)c(C)nc2c1 | - | MIC90 | H37Rv | - | resazurin | <2 µM
O=c1nc(N2CC(=NOCc3ccccc3)C2)sc2c([N+](=O)[O-])cc(C(F)(F)F)cc12 | - | MIC90 | H37Rv | - | resazurin | <0.016 µg/mL
Nc1ccc(C(=O)N/N=C/c2ccc(O)cc2)cc1 | - | inhibition | H37Rv | 12.5 µg/mL | - | 21%
COc1ccc(-n2c(=O)oc3cc(C)ccc3c2=O)cc1 | - | MIC | CNCTC MY331/88 | - | - | 31 µM
C[C@@H]1CN(c2c(F)c(N)c3c(=O)c(C(=O)O)cn(C4CC4)c3c2F)C[C@H](C)N1 | - | MIC | 890902 | - | - | 0.2 µg/mL
CN(C)C(=S)S(=O)(=O)CCCCS(=O)(=O)C(=S)N(C)C | - | MIC | H37Rv | - | BACTEC | 16 µg/mL
Cc1nc2ccc(F)cn2c1C(=O)NCc1ccc2c(c1)CCO2 | - | MIC90 | H37Rv | - | resazurin | <2 µM
COc1ccc2c3c1OC1C4(OC)C=CC5(c6c(OC)ccc(O)c64)C(C2)N(C)CCC315 | - | inhibition | H37Rv | 12.5 µg/mL | BACTEC | 0%
COc1ccc(-c2ccc(OCC(=O)O)cc2CN2CCN(c3cccc(C)n3)CC2)cc1 | - | MIC | H37Rv (ATCC 27294) | - | broth dilution | >64 µg/mL
Cc1cccc(C)c1Nc1nnc(-c2ccccn2)s1 | - | MIC | H37Rv | - | visual reading | >20 µM
O=c1oc2ccccc2c(=O)n1-c1cccc(F)c1 | - | MIC | CNCTC MY331/88 | - | - | 31 µM
CN(CC1CCCCC1)C1CCN(c2nc(=O)c3cc(C(F)(F)F)cc([N+](=O)[O-])c3s2)C1 | - | MIC90 | 16892 clinical isolate | - | resazurin | 0.016 µg/mL
CCc1nc2ccc(Cl)cn2c1C(=O)NCc1ccc(N2CCC(c3ccc(OC(F)(F)F)cc3)CC2)cc1 | - | MIC90 | H37Rv | - | resazurin | <2 µM
O=C(O)c1ccc2oc3c(C(=O)O)cc([N+](=O)[O-])cc3c(=O)c2c1 | - | inhibition | H37Rv | 32 µg/mL | - | inactive
CC(=O)/C(N=Nc1ccc(C(=O)N/N=C/c2ccc([N+](=O)[O-])o2)cc1)=C(\C)O | - | MIC | H37Rv | - | - | <12.5 µg/mL
c1ccc(-c2csc(Nc3ccccn3)n2)cc1 | - | MIC | H37Rv | - | visual reading | >20 µM
CO/C(=N\N=C\c1ccc(OC)c(OC)c1)c1ccncc1 | - | MIC | H37Rv | - | - | >20 µg/mL
Cc1ccc2c(=O)n(-c3ccccc3)c(=O)oc2c1 | - | MIC | CNCTC MY331/88 | - | - | 31 µM
N#Cc1ccc2c(=O)c3ccccc3oc2c1 | - | inhibition | H37Rv | 8 µg/mL | - | inactive
Cc1nc2ccc(Cl)cn2c1C(=O)NCc1ccc(N2CCC(c3ccc(OC(F)(F)F)cc3)CC2)cc1 | - | MIC90 | H37Rv | - | resazurin | <2 µM
COc1ccc(/C(C)=N/NC(=O)c2ccncc2)c(OC)c1 | - | MIC | 6 PI | - | - | >20 µg/mL
Cc1nc2ccc(Cl)cn2c1C(=O)NCc1ccc(N2CCOCC2)c(F)c1 | - | MIC90 | H37Rv | - | resazurin | <2 µM
CNC(=O)c1cc(NC(=O)N(CCC#N)CCN(C(=O)NC(Cc2ccccc2)C(=O)NC(CC(C)C)C(=O)NC)c2ccccc2)ccc1OC | - | MIC bound | H37Rv | - | resazurin | >6.25 µg/mL
Cc1cc2oc3ccc([N+](=O)[O-])cc3c(=O)c2cc1[N+](=O)[O-] | - | inhibition | H37Rv | 8 µg/mL | - | inactive
C/C(=N\NC(=O)c1ccncc1)c1cccc(Br)c1 | - | MIC | 16PI | - | - | >20 µg/mL
O=C(NNC(=O)c1ccncc1)Nc1ccc(Br)cc1Br | 14 d | MIC100 | My 331/88 | - | broth dilution | 8 µM
CC(NC(=O)c1c(F)cccc1F)c1nnc(SCc2ccc(F)cc2)n1Cc1cccnc1 | 14 d | MIC | H37Rv (ATCC 27294) | - | broth dilution | >64 µg/mL
O=S(=O)(O)CC(O)CN1CCN(CCO)CC1 | - | MIC bound | H37Rv | - | BACTEC | >12.8 µg/mL
CCCCOc1ccc(NC(=S)Nc2ccc(N(C)C)cc2)cc1 | - | MIC | H37RV #225 | - | - | 3.9 µg/mL
COc1ccc2c(C)cc(N/N=C/c3ccccc3)nc2c1 | - | MIC bound | H37Rv | - | BACTEC | >12.5 µg/mL
CC(C)c1ccc(NC(=O)NNC(=O)c2ccncc2)cc1 | 14 d | MIC100 | My 331/88 | - | broth dilution | 16 µM
c1ccc(-c2csc(Nc3cccc4ccccc34)n2)nc1 | - | MIC | H37Rv | - | visual reading | 6.4 µM
COc1ccc2oc(=O)n(-c3ccc(Br)cc3)c(=O)c2c1 | - | MIC | CNCTC MY331/88 | - | - | 62.5 µM
Cc1cn2c(C(=O)NCc3ccc(N4CCN(C(=O)OCC(C)C)CC4)c(F)c3)c(C)nc2s1 | - | MIC90 | H37Rv | - | resazurin | 2–10 µM
C/C(=N\NC(=O)c1ccncc1)c1cccc(C(F)(F)F)c1 | - | MIC | 16PI | - | - | >20 µg/mL
O=C(Nc1nc(-c2ccccn2)cs1)c1ccccc1 | - | MIC | - | - | visual reading | 8 µM
CO[C@H]1/C=C/O[C@@]2(C)Oc3c(C)c(O)c4c(O)c(c5c(c4c3C2=O)NC2(CCN(CC(C)C)CC2)N=5)=NC(=O)/C(C)=C\C=C\[C@H](C)[C@H](O)[C@@H](C)[C@@H](O)[C@@H](C)[C@H](OC(C)=O)[C@@H]1C | - | MIC | Strain 139-151 (S531L/W/F) | - | - | 48 µg/mL
Cc1cn2c(C(=O)NCc3ccc(N4CCSCC4)c(F)c3)c(C)nc2s1 | - | MIC90 | H37Rv | - | resazurin | <2 µM
COC(=O)COc1ccc(-c2cccc(C#N)c2)c(CN2CCN(c3ccccn3)CC2)c1 | - | MIC | H37Rv (ATCC 27294) | - | broth dilution | 32 µg/mL
O=C(/C=C/c1ccc(O)cc1)OC[C@H]1O[C@@H](Oc2cc(O)c3c(c2)OC(c2ccc(O)cc2)CC3=O)[C@H](O)[C@@H](O)[C@@H]1O | - | MIC bound | H37Rv | - | BACTEC | >12.5 µg/mL
O=c1oc2ccc(Br)cc2c(=O)n1-c1cccc(F)c1 | - | MIC | CNCTC MY331/88 | - | - | 16 µM
C[B-]1(C)n2ccc[n+]2[B-](C)(C)n2ccc[n+]21 | - | MIC | H37Rv | - | BACTEC | ≥128 µg/mL
CO/C(=N\N=C\c1ccc(Cl)cc1)c1ccncc1 | - | MIC | H37Rv | - | - | >20 µg/mL
Cc1ccn2c(C(=O)NCc3ccc(NCCN4CCOCC4)c(F)c3)c(C)nc2c1 | - | MIC90 | H37Rv | - | resazurin | 2–10 µM
NC(=O)c1ccc2c(=O)c3ccccc3oc2c1 | - | inhibition | H37Rv | 4 µg/mL | - | inactive
Nc1ccc2nc3c4ccccc4c(O)n3nc2c1 | - | MIC bound | H37Rv | - | - | >6.25 µg/mL
CO/C(=N\N=C\c1ccccc1)c1ccncc1 | - | MIC | 16PI | - | - | >20 µg/mL
CCOC(=O)[C@H]1O[C@@H]([C@@]2(C)O[C@]3(O[C@]4(C=C[C@H]3O)O[C@H]([C@@H](C)C(=O)[C@@H](C)[C@@H](O)[C@H](C)C[C@H](C)c3c(Cl)cc(C)c(O)c3C(=O)O)[C@@H](C)C[C@H]4C)[C@H](C)[C@H]2OC)C[C@H]1O | - | MIC | RMP-R | - | - | 6.3 µg/mL
CCOC(=O)c1ccc(-n2c(=O)oc3ccc(OC)cc3c2=O)cc1 | - | MIC | CNCTC MY331/88 | - | - | 32 µM
Cn1c(=O)c2c(ncn2Cc2ccc(O)c([N+](=O)[O-])c2)n(C)c1=O | - | inhibition | H37Rv | 12.5 µg/mL | BACTEC | 20%
COc1ccc2cc(CN(C(=O)Nc3ccc(F)cc3F)C3CCCCCC3)c(=O)[nH]c2c1 | 14 d | MIC | H37Rv (ATCC 27294) | - | broth dilution | >64 µg/mL
COc1cc(C)c2c(=O)c3c(oc2c1)C(=O)c1c(O)c(OC)cc(O)c1C3=O | - | inhibition | H37Rv | 12.5 µg/mL | BACTEC | 100%
O=c1oc2ccc(F)cc2c(=O)n1-c1cccc(Cl)c1 | - | MIC | CNCTC MY331/88 | - | - | 8 µM